The subject of the data set is N[C@@H](CCC(=O)N[C@@H](CSS)C(=O)NCC(=O)O)C(=O)O. The data set is described as follows: purified protein. The note with it: 100 mM potassium phosphate pH 7.4, 25 °C, 1 mM GSH, GSSH 0 to 1.2 mM made in situ from GSH and acetonic sulfur, O2 co-substrate.

In the case of “Blh ETHE1 domain (SDO domain) (Xylella fastidiosa 9a5c)”, the Km is 180 µM.
